Where two headings read alike, the source gives them in different places.
Columns and labels:
[1] = target: PB2 '627' domain (amino acids 538-693) of A/Hong Kong/156/97 (H5N1), wild type, unlabelled (influenza A virus A/Hong Kong/156/97 (H5N1))
[2] = target: PB2 '627' domain (amino acids 538-693) of A/Hong Kong/156/97 (H5N1), wild type, unlabelled (influenza A virus A/Hong Kong/156/97 (H5N1)); remark: listed apart in the source

Substance | Kd [1] [nM] | koff [1] [s⁻¹] | kon [1] [M⁻¹ s⁻¹] | Kd [2] [nM]
NP fragment 146-185 | 927 | 0.067 | 72300 | –
NP mutant R416A (monomeric) | – | – | – | 274
